The values below are quoted from earlier work in patent US20230137306A1 (priority 2020, published 2023).

The series concerns the target RNA-dependent RNA polymerase of Influenza A virus subtype H1N1 (Influenza A virus, UniProt P03431). As to conditions: via lethal mutation; cited from earlier work.

For `NC(=O)c1nc(F)c[nH]c1=O` [favipiravir], the “inhibition of viral RNA-dependent RNA polymerase activity” value is on record as “inhibits the activity”.
